The target of this assay is SARS-CoV-2 M^pro (Severe acute respiratory syndrome coronavirus 2, UniProt P0DTD1). In words: TRIP screening of M^pro inhibitor binding and binding strength/affinity.

On to `C[C@@H](OC(C)(C)C)[C@H](NC(=O)OCc1ccccc1)C(=O)N[C@@H](CC1CCCCC1)C(=O)N[C@H](C=O)C[C@@H]1CCNC1=O` [MPI8], for which the “binding strength/affinity by TRIP (total change in phenylalanine peak), compared among ligands” value was “substantially higher efficiency in binding and dimerizing the protease”.

For the origin of these results see patent publication US20240353338A1 (priority 2023, published 2024).
